Pooled drug test results. Numbers come from NIAID ChemDB, via PubChem.

Common to all: whole-cell or culture tests; species: Respiratory syncytial virus; endpoint: EC50

ECn is the concentration giving n% inhibition of infection, replication or growth.

compound | method | strain or isolate | cell line | value
CCOC(=O)c1cc(C#N)c2[nH]c3ccccc3n2c1=O | plaque count | LONG | HEP-2 | 15.3 µg/mL
COC(=O)[C@]1(C)CCC[C@]2(C)c3ccc4[nH]cnc4c3CCC12 | plaque count | - | HeLa | >4 µg/mL
NC(=O)CCN(CCC(N)=O)S(=O)(=O)c1cccc(Nc2nc(Nc3cccc(S(=O)(=O)N(CCC(N)=O)CCC(N)=O)c3)nc(Nc3ccc(-c4ccc(Nc5nc(Nc6cccc(S(=O)(=O)N(CCC(N)=O)CCC(N)=O)c6)nc(Nc6cccc(S(=O)(=O)N(CCC(N)=O)CCC(N)=O)c6)n5)cc4S(=O)(=O)O)c(S(=O)(=O)O)c3)n2)c1 | cytopathic effect | A2 | HEP-2 | 0.25 µg/mL
O=C(NC1CC1)c1cc2c(s1)-c1ccccc1N(C(=O)c1ccc(NC(=O)c3ccccc3-c3ccccc3)cc1)CC2 | plaque count | LONG | HeLa | 0.2 µM
CC=NC(=N)c1nc(-c2cccc(C)c2)n(COCCO)n1 | cytopathic effect | LONG | HeLa | >100 µg/mL
COC(=O)[C@]1(C)CCC[C@]2(C)c3cc(Br)c4[nH]ccc4c3CCC12 | plaque count | - | HeLa | >4 µg/mL
Nc1ccc2c(c1)CSSC2 | cytopathic effect | LONG | HeLa | >177.9 µM
O=C(/C=C/c1ccc(O)c(O)c1)O[C@@H]1CC(O)(C(=O)O)C[C@@H](OC(=O)/C=C/c2ccc(O)c(O)c2)C1O | cytopathic effect | LONG | HEP-2 | 0.068 µg/mL
C=C(N=CC)c1nc(-c2ccc(C)cc2)n([C@@H]2O[C@H](CO)[C@@H](O)[C@H]2O)n1 | cytopathic effect | LONG | HeLa | ≥100 µg/mL
COC(=O)[C@]1(C)CCC[C@]2(C)c3cc4cc[nH]c4cc3CCC12 | plaque count | - | HeLa | >4 µg/mL
C=C(N=CC)c1nc(-c2ccc(C)cc2)n(C2O[C@H](CO)[C@@H](O)[C@H](O)[C@H]2O)n1 | cytopathic effect | LONG | HeLa | 100 µg/mL
N#Cc1cc(NC(=O)c2ccccc2)c(=O)n2c1[nH]c1ccccc12 | plaque count | LONG | HEP-2 | 0.12 µg/mL
CC=NC(=N)c1nc(-c2cccc(C)c2)n(Cc2ccccc2)n1 | cytopathic effect | LONG | HeLa | >20 µg/mL
COC(=O)[C@]1(C)CCC[C@]2(C)c3cc(Br)c4nc[nH]c4c3CCC12 | plaque count | - | HeLa | >4 µg/mL
C=C(N=CC)c1nc(-c2cccc(C)c2)n([C@@H]2O[C@H](CO)[C@@H](O)[C@H]2O)n1 | cytopathic effect | LONG | HeLa | >100 µg/mL
Clc1ccc2c(c1)CSSC2 | cytopathic effect | LONG | HeLa | 7.9 µM
CC(=O)c1cc(NC(=O)c2ccccc2)c(=O)n2c1[nH]c1ccccc12 | plaque count | LONG | HEP-2 | >40 µg/mL
Fc1ccc2c(c1)CSSC2 | cytopathic effect | LONG | HeLa | 223.3 µM
N#Cc1cc(C#N)c2[nH]c3ccccc3n2c1=O | syncytia | - | HEP-2 | 7.9 µg/mL
c1ccc2c(c1)CSSC2 | cytopathic effect | FM58-8 (A) clinical isolate | HeLa | 7.1 µM
C=C(N=CC)c1nc(-c2ccccc2)n(C2O[C@H](CO)[C@@H](O)[C@H](O)[C@H]2O)n1 | cytopathic effect | LONG | HeLa | 70 µg/mL

A second listing of 2 rows from above:

{"compound": "COC(=O)[C@]1(C)CCC[C@]2(C)c3cc(Br)c4nc[nH]c4c3CCC12", "method": "plaque count", "cell line": "HeLa", "value": ">4 µg/mL"}
{"compound": "Fc1ccc2c(c1)CSSC2", "method": "cytopathic effect", "strain or isolate": "LONG", "cell line": "HeLa", "value": "223.3 µM"}

An empty or dashed field is not shown. Conditions beyond the fields shown may differ between rows.